# Results as given in paper PMC10743929, “Amphiphilic Sialic Acid Derivatives as Potential Dual-Specific Inhibitors of Influenza Hemagglutinin and Neuraminidase” (International Journal of Molecular Sciences, 2023).
# Tested on: Madin-Darby canine kidney (MDCK) cells
# Details: dog
smiles,measurement,value
"NC(=O)c1ncn([C@@H]2O[C@H](CO)[C@@H](O)[C@H]2O)n1 [Ribavirin, reference compound]",Cytotoxicity MCC (minimum cytotoxic concentration),100 ± 0 µM
